# Test results reported in paper PMC11879855, “Structural insights into tecovirimat antiviral activity and poxvirus resistance” (2025).
# Columns and labels:
# [1] = test system: VACV; conditions: cited from earlier work
# [2] = test system: MPXV clade IIb strain MPXV/2022/FR/CMIP; assay: MPXV plaque inhibition (neutralization) assay in Vero cells; conditions: read-out: IC50 (plaque inhibition of MPXV); Vero cells infected with MPXV clade IIb
# [3] = test system: MPXV clade IIb strain MPXV/2022/FR/CMIP
# [4] = read-out: EC50(VACV), inhibits 50% of virus-induced cytopathic effects
Compound,"EC50 [1, 4] [nM]",other results
O=C(NN1C(=O)[C@@H]2[C@@H]3C=C[C@@H]([C@H]4C[C@@H]34)[C@@H]2C1=O)c1ccccc1Cl,3000,–
Cn1cccc1C(=O)NN1C(=O)[C@@H]2[C@@H]3C=C[C@@H]([C@H]4C[C@@H]34)[C@@H]2C1=O,15800,–
Cc1cc(C(=O)NN2C(=O)[C@@H]3[C@@H]4C=C[C@@H]([C@H]5C[C@@H]45)[C@@H]3C2=O)n[nH]1,7100,–
Nc1ccc(C(=O)NN2C(=O)[C@@H]3[C@@H]4C=C[C@@H]([C@H]5C[C@@H]45)[C@@H]3C2=O)cc1,7700,–
O=C(NN1C(=O)[C@@H]2[C@@H]3C=C[C@@H]([C@H]4C[C@@H]34)[C@@H]2C1=O)c1ccc([N+](=O)[O-])cc1,20,–
N1-isonicotinoly-N2-3-methyl-4-chlorobenzoylhydrazine,–,IC50 [2]: 74 nM
O=C(NN1C(=O)[C@@H]2[C@@H]3C=C[C@@H]([C@H]4C[C@@H]34)[C@@H]2C1=O)c1ccccc1Br,2300,–
O=C(NN1C(=O)[C@@H]2[C@@H]3C=C[C@@H]([C@H]4C[C@@H]34)[C@@H]2C1=O)c1ccncc1,500,–
O=C(NN1C(=O)[C@@H]2[C@@H]3C=C[C@@H]([C@H]4C[C@@H]34)[C@@H]2C1=O)c1ccc(C(F)(F)F)cc1,–,IC50 [3]: 17 nM; EC50 [1]: 40 nM

# Where two headings read alike, the source gives them in different places.
